Measured values from several laboratories, pooled; numbers as filed in NIAID ChemDB.

All rows: whole-cell or culture tests

Neighbouring rows are from separate reports. Fold resistance: result on the changed form divided by that on wild type. ECn is the concentration giving n% inhibition of infection, replication or growth. Percent inhibition refers to the dose given; in toxicity tests it is the harm to the cells. Blank or dashed fields: not listed here.

smiles,species,strain,mutations,cells,method,setting,measure,dose,result
Cc1ccnc2c1NC(=O)c1cccnc1N2C1CC1,HIV-1,NNRTI-resistant (RT E138K),RT-E138K,MAGI,β-galactosidase,-,EC50,-,0.065 µM
Cc1cn([C@H]2C=C[C@@H](CO)O2)c(=O)[nH]c1=O,HIV-1,Recombinant,RT-V118I M184V,HeLa,luciferase,-,EC50,-,1.59 µM
O=c1[nH]cnc2c1ncn2[C@H]1CC[C@@H](CO)O1,HIV-2,2298,-,PBMC,ELISA,-,EC50,-,6.14 µM
N#Cc1cc2[nH]c3ccccc3c2n(-c2ccc([N+](=O)[O-])cc2)c1=O,HIV-1,Recombinant,RT-M41L S68N G112S M184V,HeLa,luciferase,-,fold resistance,-,10.3
Nc1ncnc2c1ncn2[C@H]1CC[C@@H](CO)O1,HIV-2,LAV-2,-,CEM,virus yield,-,inhibition,100 µM,99.9%
CC(C)=CCN1Cc2cc(Cl)cc3[nH]c(=S)n(c23)C[C@@H]1C,HIV-1,-,RT-K70R L100I,MT-4,-,-,EC95,-,>3 µM
CCc1c(C(=O)c2cc(C)cc(C)c2)n(CC2CC=CC2)c(=O)[nH]c1=O,HIV-2,CBL-20,-,PBMC,cytopathic effect / XTT,clinical isolate,EC50,-,0.48 µM
CC(C)CN(C[C@@H](O)[C@H](Cc1ccccc1)NC(=O)[C@H](CC(N)=O)NC(=O)c1ccc2ccccc2n1)C(=O)NC(C)(C)C,HIV-1,NL4-3,PR-M46I L63P V82T I84V,MT-4,p24,-,EC95,-,1.5 µM
Cn1c2ccccc2c2c1cc(C#N)c(=O)n2-c1ccc([N+](=O)[O-])cc1,HIV-1,NNRTI-resistant,RT-K103N V108I,HeLa,luciferase,-,fold resistance,-,1.2
O=C1N(Cc2ccc(CO)cc2)[C@H](Cc2ccccc2)[C@H](O)[C@@H](O)[C@@H](Cc2ccccc2)N1Cc1ccc(CO)cc1,HIV-1,A012B pre,-,PBMC,p24,-,inhibition,0.07 µM,90%
C#C[C@]1(CO)O[C@@H](n2cnc3c(N)nc(F)nc32)CC1O,HIV-2,ROD9,K65R Q151M M184V,MAGIC-5A,β-galactosidase / absorbance,-,fold resistance,-,15
O=C1N(Cc2ccc(CO)cc2)[C@H](Cc2ccccc2)[C@H](O)[C@@H](O)[C@@H](Cc2ccccc2)N1Cc1ccc(CO)cc1,HIV-1,NL4-3,PR-L63P V82T I84V,MT-4,p24,-,EC95,-,3 µM
Cc1ccnc2c1NC(=O)c1cccnc1N2C1CC1,HIV-1,HXB2,RT-M41L T215Y,HT4 + HT4 LacZ-1,plaque count,-,fold resistance,-,0.833
c1cc(CN2CCCNCCNCCCNCC2)ccc1CN1CCCNCCNCCCNCC1,HIV-1,92US714 CLADE B R5,-,PBMC,p24,-,inhibition,0.5 µM,0%
O=C(O)P(=O)(O)O,HIV-1,IIIB,-,PBL,RT activity,6 d,inhibition,64 µM,96%

2 of the rows above, restated:

smiles	species	strain	mutations	cells	method	setting	measure	dose	result
CCc1c(C(=O)c2cc(C)cc(C)c2)n(CC2CC=CC2)c(=O)[nH]c1=O	HIV-2	CBL-20	-	PBMC	cytopathic effect / XTT	clinical isolate	EC50	-	0.48 µM
Nc1ncnc2c1ncn2[C@H]1CC[C@@H](CO)O1	HIV-2	LAV-2	-	CEM	virus yield	-	inhibition	100 µM	99.9%